Results of unrelated studies side by side (data: NIAID ChemDB).

All rows: whole-cell or culture tests; species: Mycobacterium kansasii; measure: MIC

Neighbouring rows are from separate reports. An empty or dashed field is not shown.

SMILES | conditions | strain or isolate | read by | result
O=C(Nc1cccc(F)c1)c1cc(Cl)ccc1OS(=O)(=O)c1ccccc1 | - | 6509/96 | - | 125 µM
N/C(=N\N=C\c1ccccc1)SCc1ccc(C(F)(F)F)cc1 | 21 d | ATCC 12478 | broth dilution | 62.5 µM
O=C(Nc1cncc(Cl)n1)c1ccccc1O | - | - | resazurin | >100 µg/mL
S=C=NCCCCCCCN=C=S | - | - | visual reading | 8 µg/mL
Cc1ccc2nc(C)c(C(=O)NCc3ccc(C(F)(F)F)cc3)n2c1 | - | Clinical isolate 0008 | MTT | 0.25 µg/mL
COc1ccc(CS/C(N)=N/N=C/c2ccccc2O)cc1 | 14 d | 6509/96 | broth dilution | 250 µM
O=C(Oc1ccc(Cl)cc1C(=O)Nc1cccc(F)c1)c1cnccn1 | 21 d | 235/80 | - | 8 µM
C[C@@H](NC(=O)OCc1ccccc1)c1cnc(-c2ccccc2)[nH]1 | 14 d | My 235/80 | - | 250 µM
O=C(Oc1cc(Cl)ccc1C(=O)Nc1cccc(Cl)c1)c1ccccc1 | 7 d | 6509/96 | broth dilution | 4 µM
O=C(Nc1ccc(Cl)cc1)c1cc(Cl)ccc1OS(=O)(=O)c1ccccc1 | 14 d | 235/80 | - | 8 µM
O=C(Oc1cc(Cl)ccc1C(=O)Nc1ccc(Cl)c(Cl)c1)c1cnccn1 | 7 d | 6509/96 | - | 2 µM
S=c1oc2ccc(Br)cc2c(=S)n1-c1ccc(Cl)c(Cl)c1 | 21 d | 6509/96 | - | 4 µM
O=C(Nc1ccc(Cl)c(Cl)c1)c1cc(Cl)ccc1O | 14 d | 6509/96 | broth dilution | 8 µM
CCC(C)c1ccc(-n2c(=S)oc3ccc(Br)cc3c2=S)cc1 | 21 d | 6509/96 | broth dilution | 4 µM
O=C(Oc1cc(Cl)ccc1C(=O)Nc1cccc(Br)c1)c1ccccc1 | 21 d | 235/80 | broth dilution | 4 µM
Cc1ccn2c(C(=O)NCc3ccc4c(c3)CCO4)c(C)nc2c1 | - | Clinical isolate 379 | MTT | 1 µg/mL
O=C(Oc1cc(Cl)ccc1C(=O)Nc1ccc(C(F)(F)F)cc1)c1ccccc1 | 7 d | 6509/96 | broth dilution | 1 µM
Cc1ccc2oc(=S)n(-c3cccc(F)c3)c(=S)c2c1 | 14 d | 6509/96 | - | 8 µM
N=C(N)N1N=C(/C=C/c2ccc(Cl)cc2)CC1c1ccc(Cl)cc1 | - | - | resazurin | 6.96 µM
O=C(Nc1cccc(Cl)c1)c1ccc(Cl)cc1OS(=O)(=O)c1ccccc1 | 14 d | 6509/96 | - | 500 µM
O=C(Oc1ccc(Cl)cc1C(=O)Nc1cccc(Cl)c1)c1ccccc1 | 21 d | 235/80 | broth dilution | 8 µM
N/C(=N\N=C\c1cc(Br)ccc1O)SCc1ccc(F)cc1 | 21 d | ATCC 12478 | broth dilution | 32 µM
O=c1oc2ccc(F)cc2c(=S)n1-c1ccc(Br)cc1 | 14 d | My 235/80 | - | 2 µM
CC(C)[C@H](NC(=O)OCc1ccccc1)c1cnc(-c2ccc([N+](=O)[O-])cc2)[nH]1 | 21 d | My 6509/96 | - | 32 µM
CCC(C)c1ccc(-n2c(=S)oc3cc(C)ccc3c2=S)cc1 | 14 d | 6509/96 | broth dilution | 8 µM
O=C(Oc1cc(Cl)ccc1C(=O)Nc1ccc(Cl)cc1)c1ccccc1 | 21 d | 235/80 | broth dilution | 4 µM
O=c1oc2ccc(F)cc2c(=S)n1-c1cccc(F)c1 | 21 d | My 235/80 | - | 16 µM
O=C(Oc1cc(Cl)ccc1C(=O)Nc1ccc(F)cc1)c1cnccn1 | 7 d | 235/80 | - | 2 µM
C[C@H](NC(=O)OCc1ccccc1)c1cnc(-c2ccc([N+](=O)[O-])cc2)[nH]1 | 14 d | My 235/80 | - | >125 µM
O=C(Oc1ccc(Cl)cc1C(=O)Nc1cccc(C(F)(F)F)c1)c1cnccn1 | 7 d | 235/80 | - | 8 µM
N=C(N)N1N=C(/C=C/c2ccccc2)CC1c1ccccc1 | - | - | resazurin | 2.15 µM
CC(C)C[C@H](NC(=O)OCc1ccccc1)c1cnc(-c2ccccc2)[nH]1 | 14 d | My 235/80 | - | 500 µM
COc1ccc2oc(=S)n(-c3ccc(Cl)c(Cl)c3)c(=S)c2c1 | 21 d | My 235/80 | - | 32 µM
S=C=NCCCCCCN=C=S | - | - | visual reading | 8 µg/mL
O=c1oc2ccc(Cl)cc2c(=S)n1-c1ccc(C(F)(F)F)cc1 | 14 d | 6509/96 | - | 16 µM
O=C(Nc1cccc(F)c1)c1ccc(Cl)cc1OS(=O)(=O)c1ccccc1 | 7 d | 6509/96 | - | 16 µM
C[C@H](NC(=O)OCc1ccccc1)c1cnc(-c2ccccc2)[nH]1 | 21 d | My 6509/96 | - | 125 µM
Cc1ccc(-n2c(=O)oc3ccc(C)cc3c2=S)cc1 | 21 d | 6509/96 | - | 2 µM
Cc1ccc(CS/C(N)=N/N=C/c2ccccc2)cc1 | 14 d | 6509/96 | broth dilution | 62.5 µM

For reference, 3 entries again:

COc1ccc(CS/C(N)=N/N=C/c2ccccc2O)cc1 ; conditions: 14 d ; strain or isolate: 6509/96 ; read by: broth dilution ; result: 250 µM
Cc1ccn2c(C(=O)NCc3ccc4c(c3)CCO4)c(C)nc2c1 ; strain or isolate: Clinical isolate 379 ; read by: MTT ; result: 1 µg/mL
C[C@H](NC(=O)OCc1ccccc1)c1cnc(-c2ccccc2)[nH]1 ; conditions: 21 d ; strain or isolate: My 6509/96 ; result: 125 µM